Compound potency records, mixed from different reports. Data source: NIAID ChemDB in PubChem.

Common to all: whole-cell or culture tests; organism: HIV-1; cell line: MT-4; endpoint: EC50

a–b is a range or a potency band.

structure | mutations | method | strain | value
Cc1ccnc2c1NC(=O)c1cccnc1N2C1CC1 | E138K | MTT |  | 0.218 µM
Cc1cn([C@H]2C[C@H](N=[N+]=[N-])[C@@H](CO)O2)c(=O)[nH]c1=O | E138K | MTT | IIIB | 0.019 µM
Cc1cn([C@H]2C=C[C@@H](CO)O2)c(=O)[nH]c1=O | RT-K65R | cytopathic effect / MTT | HXB2 | 0.6 µM
CC1C(=O)Nc2ccc(Cl)cc2S(=O)(=O)N1CC=Cc1ccccc1 |  | cytopathic effect / MTT |  | 10 µM
Cc1c(Cc2cccc3ccccc23)nc(SCC(=O)c2ccc(Cl)cc2)[nH]c1=O | RT-K103N Y181C | cytopathic effect | SO561945 | ≥198 µM
CC(C)[C@@H]1CC[C@@H](C)C[C@H]1O[C@@H]1O[C@H](COS(=O)(=O)O)[C@@H](OS(=O)(=O)O)[C@H](O[C@@H]2O[C@H](COS(=O)(=O)O)[C@@H](OS(=O)(=O)O)[C@H](O[C@@H]3O[C@H](COS(=O)(=O)O)[C@@H](OS(=O)(=O)O)[C@H](O[C@@H]4O[C@H](COS(=O)(=O)O)[C@@H](OS(=O)(=O)O)[C@H](O[C@@H]5O[C@H](COS(=O)(=O)O)[C@@H](OS(=O)(=O)O)[C@H](OS(=O)(=O)O)[C@H]5OS(=O)(=O)O)[C@H]4OS(=O)(=O)O)[C@H]3OS(=O)(=O)O)[C@H]2OS(=O)(=O)O)[C@H]1OS(=O)(=O)O |  | cytopathic effect / MTT | IIIB | 0.6 µg/mL
CC(NC(=S)Nc1nc2ccccc2s1)c1ccccc1 | AZT-resistant | MTT | IIIB | 0.8 µM
COc1ccc(-n2c(=O)c(O)c3n(c2=O)CCN(Cc2ccc(F)cc2)C3=O)cn1 |  | p24 |  | <10 µM
C=CCOc1cccc(Cc2c(CC)c(=O)n(COCC)c(=O)n2COCC)c1 |  | cytopathic effect / MTT | RT-Y181C Mutant NNRTI-resistant | >20 µM
CCCCO[C@@H]1O[C@H](COS(=O)(=O)O)[C@@H](OS(=O)(=O)O)[C@H](O[C@@H]2O[C@H](COS(=O)(=O)O)[C@@H](OS(=O)(=O)O)[C@H](O[C@@H]3O[C@H](COS(=O)(=O)O)[C@@H](OS(=O)(=O)O)[C@H](O[C@@H]4O[C@H](COS(=O)(=O)O)[C@@H](OS(=O)(=O)O)[C@H](OS(=O)(=O)O)[C@H]4OS(=O)(=O)O)[C@H]3OS(=O)(=O)O)[C@H]2OS(=O)(=O)O)[C@H]1OS(=O)(=O)O |  | cytopathic effect / MTT | IIIB | 43 µg/mL
Nc1nc(=O)n([C@@H]2CC[C@H](CO)O2)cc1F |  | MTT | RF | 1.31 µM
Cc1ccc(-c2c([C@H](OC(C)(C)C)C(=O)O)c(C)nc3ccccc23)cc1C |  |  |  | 0.039 µM
FC(F)(F)c1cccc(NC(=S)Nc2nc3ccccc3s2)c1 |  | MTT | IIIB | >5.8 µM
CCCCCCOCCOCCO[C@@H]1O[C@H](COS(=O)(=O)O)[C@@H](OS(=O)(=O)O)[C@H](O[C@@H]2O[C@H](COS(=O)(=O)O)[C@@H](OS(=O)(=O)O)[C@H](O[C@@H]3O[C@H](COS(=O)(=O)O)[C@@H](OS(=O)(=O)O)[C@H](O[C@@H]4O[C@H](COS(=O)(=O)O)[C@@H](OS(=O)(=O)O)[C@H](O[C@@H]5O[C@H](COS(=O)(=O)O)[C@@H](OS(=O)(=O)O)[C@H](OS(=O)(=O)O)[C@H]5OS(=O)(=O)O)[C@H]4OS(=O)(=O)O)[C@H]3OS(=O)(=O)O)[C@H]2OS(=O)(=O)O)[C@H]1OS(=O)(=O)O |  | cytopathic effect / MTT | IIIB | 1.8 µg/mL
CC(C)n1c(=O)c(O)c2n(c1=O)C(CCN1CCOCC1)CN(Cc1ccc(F)cc1)C2=O |  | p24 |  | <10 µM
C=CCOc1cccc(Cc2[nH]c(=S)[nH]c(=O)c2CC)c1 |  | cytopathic effect / MTT | IIIB | >20 µM
CCNC(=O)c1cccn1S(=O)(=O)c1cc(Cl)ccc1N |  | cytopathic effect / MTT | IIIB | >200 µM
C=CCOc1cccc(Cc2nc(SCC(C)C)nc(OCC(C)C)c2CC)c1 |  | cytopathic effect / MTT | RT-Y181C Mutant NNRTI-resistant | >100 µM
COc1ccc(C(=O)CSc2nc(Cc3cccc4ccccc34)c(C)c(=O)[nH]2)cc1 | RT-K103N Y181C | cytopathic effect | SO561945 | ≥290 µM
CC(C)=CCN(C(C)C(=O)O)S(=O)(=O)c1cc(Cl)ccc1[N+](=O)[O-] |  | cytopathic effect / MTT |  | ≥200 µM
CCOC(=O)CSc1nc(Cc2cccc3ccccc23)c(C)c(=O)[nH]1 | RT-K103N Y181C | cytopathic effect | SO561945 | ≥317 µM
Nc1ccn([C@H]2CC[C@H](CO)O2)c(=O)n1 |  | MTT | RF | >473 µM
S=C(Nc1ccc(Cl)c(Cl)c1)Nc1nc2ccccc2s1 |  | MTT | IIIB | >15 µM
CCCCOC(=O)c1cccn1S(=O)(=O)c1cc(Cl)ccc1N |  | cytopathic effect / MTT | IIIB | >200 µM
COC[C@@H]1CC(NC(=O)[C@H](OCc2ccccc2)[C@H](O)[C@@H](O)[C@@H](OCc2ccccc2)C(=O)N[C@@H]2CO[C@H](COC)C2)CO1 |  | cytopathic effect / XTT |  | >10 µM
CN(Cc1ccccc1)C(=O)c1cccn1S(=O)(=O)c1cc(Cl)ccc1[N+](=O)[O-] |  | cytopathic effect / MTT | IIIB | >17 µM
C=CCN1C(C)C(=O)Nc2ccc(Cl)cc2S1(=O)=O |  | cytopathic effect / MTT |  | 28 µM
COP(=O)(c1cc(C)cc(CCC#N)c1)c1c(C(N)=O)[nH]c2ccc(Cl)c(F)c12 | K103R/V179D/P225H | cytopathic effect | IIIB | 0.01 µM
C#Cc1ccc(Nc2nccc(Oc3c(C)cc(-c4cn(Cc5ccc(C(=O)OC)cc5)nn4)cc3C)n2)cc1 | Y188L | MTT | IIIB | ≥9.09 µM
N#Cc1cccn1S(=O)(=O)c1cc(Cl)ccc1N |  | cytopathic effect / MTT | IIIB | 3.5 µM
CC(C)n1c(=O)c(O)c2n(c1=O)C(CCN(C)Cc1ccccc1)CN(Cc1ccc(F)cc1)C2=O |  | p24 |  | <10 µM
CCCCCCCCCCCCOC1OC(COS(=O)(=O)O)C(OS(=O)(=O)O)C(OC2OC(COS(=O)(=O)O)C(OS(=O)(=O)O)C(OC3OC(COS(=O)(=O)O)C(OS(=O)(=O)O)C(OC4OC(COS(=O)(=O)O)C(OS(=O)(=O)O)C(OC5OC(COS(=O)(=O)O)C(OS(=O)(=O)O)C(OS(=O)(=O)O)C5OS(=O)(=O)O)C4OS(=O)(=O)O)C3OS(=O)(=O)O)C2OS(=O)(=O)O)C1OS(=O)(=O)O |  | cytopathic effect / MTT | IIIB | 0.18 µg/mL
O=C1c2c(O)c(=O)n(CCc3cccs3)c(=O)n2CCN1Cc1ccc(F)cc1 |  | p24 |  | <10 µM
C=CCOc1cccc(Cc2[nH]c(=O)c(CC)c(O)c2CC)c1 |  | cytopathic effect / MTT | IIIB | >20 µM
NC(=O)c1cccn1S(=O)(=O)c1ccccc1N |  | cytopathic effect / MTT | IIIB | >200 µM
Clc1cc(CN2CCCNCCNCCCNCC2)cc(Cl)n1 |  | p24 | HE R3 R5 X4 | 26.5 µM
C=CCOc1cccc(Cc2c(CC)c(=O)[nH]c(=O)n2COCC)c1 |  | cytopathic effect / MTT | RT-Y181C Mutant NNRTI-resistant | 7 µM
CCOC(=O)C(C)N(CC=C(C)C)S(=O)(=O)c1cc(Cl)ccc1N |  | cytopathic effect / MTT |  | 2 µM
Nc1ccc(Cl)cc1S(=O)(=O)n1cccc1C(=O)Oc1ccccc1 |  | cytopathic effect / MTT | IIIB | >24 µM
CC(C)=CCC[C@]1(C)C=Cc2c(ccc3c2C(=O)C(O)=C(C2=C(C4=C(O)C(=O)c5c(ccc6c5C=C[C@@](C)(CCC=C(C)C)O6)C4=O)C(=O)c4c(ccc5c4C=C[C@@](C)(CCC=C(C)C)O5)C2=O)C3=O)O1 |  | RT activity | RF | 0.04 µM
NC(=O)c1cccn1S(=O)(=O)c1cc(Cl)ccc1[N+](=O)[O-] |  | cytopathic effect / MTT | IIIB | 27 µM
Cn1cc(NC(=O)Nc2cc(C(=O)Nc3cc(C(=O)Nc4ccc(S(=O)(=O)O)c5cc(S(=O)(=O)O)ccc45)n(C)c3)n(C)c2)cc1C(=O)Nc1cc(C(=O)Nc2ccc(S(=O)(=O)O)c3cc(S(=O)(=O)O)ccc23)n(C)c1 |  | cytopathic effect / XTT | 6R(AZT) | 4.5 µM
O=C(OCC1CC1)c1cccn1S(=O)(=O)c1cc(Cl)ccc1[N+](=O)[O-] |  | cytopathic effect / MTT | IIIB | >96 µM
CCCCCCO[C@@H]1O[C@H](COS(=O)(=O)O)[C@@H](OS(=O)(=O)O)[C@H](O[C@@H]2O[C@H](COS(=O)(=O)O)[C@@H](OS(=O)(=O)O)[C@H](O[C@@H]3O[C@H](COS(=O)(=O)O)[C@@H](OS(=O)(=O)O)[C@H](O[C@@H]4O[C@H](COS(=O)(=O)O)[C@@H](OS(=O)(=O)O)[C@H](O[C@@H]5O[C@H](COS(=O)(=O)O)[C@@H](OS(=O)(=O)O)[C@H](OS(=O)(=O)O)[C@H]5OS(=O)(=O)O)[C@H]4OS(=O)(=O)O)[C@H]3OS(=O)(=O)O)[C@H]2OS(=O)(=O)O)[C@H]1OS(=O)(=O)O |  | cytopathic effect / MTT | IIIB | 1.1 µg/mL
Nc1ccn([C@@H]2CC[C@H](CO)O2)c(=O)n1 |  | MTT | RF | 0.094–2.84 µM
O=C1CS/C(=N\c2nc3ccccc3s2)N1c1ccccc1Br |  | MTT | IIIB | >9 µM
CCOCn1c(Cc2cccc(OCC=O)c2)c(CC)c(=O)[nH]c1=O |  | cytopathic effect / MTT | IIIB | 8 µM
Nc1ncn([C@H]2CC[C@H](CO)O2)c(=O)n1 |  | MTT | RF | >471 µM
CCCCCCO[C@@H]1O[C@H](COS(=O)(=O)O)[C@@H](OS(=O)(=O)O)[C@H](O[C@@H]2O[C@H](COS(=O)(=O)O)[C@@H](OS(=O)(=O)O)[C@H](O[C@@H]3O[C@H](COS(=O)(=O)O)[C@@H](OS(=O)(=O)O)[C@H](O[C@@H]4O[C@H](COS(=O)(=O)O)[C@@H](OS(=O)(=O)O)[C@H](OS(=O)(=O)O)[C@H]4OS(=O)(=O)O)[C@H]3OS(=O)(=O)O)[C@H]2OS(=O)(=O)O)[C@H]1OS(=O)(=O)O |  | cytopathic effect / MTT | IIIB | 36 µg/mL
O=C1CNS(=O)(=O)c2cc(Cl)ccc2N1 |  | cytopathic effect / MTT |  | >200 µM
CC(=O)N(C)CCC1CN(Cc2ccc(F)cc2)C(=O)c2c(O)c(=O)n(C(C)C)c(=O)n21 |  | p24 |  | <10 µM
C=CCCc1cccc(Cc2c(CC)c(=O)n(COCC)c(=O)n2COCC)c1 |  | cytopathic effect / MTT | IIIB | >45 µM
CNCCC1CN(Cc2ccc(F)cc2)C(=O)c2c(O)c(=O)n(C(C)C)c(=O)n21 |  | p24 |  | <10 µM
CCOCn1c(Cc2cccc(CCC=O)c2)c(CC)c(=O)[nH]c1=O |  | cytopathic effect / MTT | IIIB | 1.9 µM
CCOC[C@@H]1CC(NC(=O)[C@H](OCc2ccccc2)[C@H](O)[C@@H](O)[C@@H](OCc2ccccc2)C(=O)N[C@@H]2CO[C@H](COCC)C2)CO1 |  | cytopathic effect / XTT |  | >10 µM
Nc1ccn([C@@H]2CS[C@H](CO)O2)c(=O)n1 |  | MTT | IIIB | 3.1 µM
C#Cc1ccc(Nc2nccc(Oc3c(C)cc(-c4cn(CCc5cccs5)nn4)cc3C)n2)cc1 | K103N | MTT | IIIB | 0.37 µM
C=CCOC[C@@H]1CC(NC(=O)[C@H](OCc2ccccc2)[C@H](O)[C@@H](O)[C@@H](OCc2ccccc2)C(=O)N[C@@H]2CO[C@H](COCC=C)C2)CO1 |  | cytopathic effect / XTT |  | >10 µM
O=C1CS/C(=N\c2nc3ccccc3s2)N1c1cccc(C(F)(F)F)c1 |  | MTT | IIIB | >67 µM
CC(O)[C@@H]1CC(NC(=O)[C@H](OCc2ccccc2)[C@H](O)[C@@H](O)[C@@H](OCc2ccccc2)C(=O)N[C@H]2c3ccccc3C[C@H]2O)CO1 |  | cytopathic effect / XTT |  | 6.1 µM
C=C(C)CNC(=S)Nc1nc2ccccc2s1 |  | MTT | IIIB | >100 µM

The last 4 rows once more:

structure | mutations | method | strain | value
C=CCOC[C@@H]1CC(NC(=O)[C@H](OCc2ccccc2)[C@H](O)[C@@H](O)[C@@H](OCc2ccccc2)C(=O)N[C@@H]2CO[C@H](COCC=C)C2)CO1 |  | cytopathic effect / XTT |  | >10 µM
O=C1CS/C(=N\c2nc3ccccc3s2)N1c1cccc(C(F)(F)F)c1 |  | MTT | IIIB | >67 µM
CC(O)[C@@H]1CC(NC(=O)[C@H](OCc2ccccc2)[C@H](O)[C@@H](O)[C@@H](OCc2ccccc2)C(=O)N[C@H]2c3ccccc3C[C@H]2O)CO1 |  | cytopathic effect / XTT |  | 6.1 µM
C=C(C)CNC(=S)Nc1nc2ccccc2s1 |  | MTT | IIIB | >100 µM

Blank or dashed fields: not listed here. Conditions beyond the fields shown may differ between rows. ECn is the concentration giving n% inhibition of infection, replication or growth.